Source: PubChem BioAssay AID1259414 (Drosophila RNAi Screening Center, 2018)

Aim: 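Genome-wide screen for host control of endosymbiont load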 (primary screen)
System: Drosophila JW18 cells infected with Wolbachia
Reagents: long dsRNA against Drosophila genes, 0.25 µg dsRNA per well of a 384-well plate
Time to read-out: 5 days
Treatment: cells persistently infected with Wolbachia before knock-down; no added drug
Read-out: 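Imaged fluorescence in situ signal for Wolbachia 23S rRNA per DAPI-counted host cell, given as a robust z-score within each plate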
Scale: Wolbachia per cell robust z: higher = more Wolbachia per host cell than the plate typical
Rule for the call: 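Hit when robust z is 1.5 or more, or -1.5 or less, in at least two of three replicates; excludes dsRNAs with several or no targets, genes not expressed in JW18 and well A1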
The screen tested about 24,000 reagents; this is an unselected part of those that have a named target and a result. Of all reagents, about 1,210 (5%) are marked active. 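Inactive calls also include excluded dsRNAs with several or no targets, genes unexpressed in JW18, and well A1, regardless of score.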 Names joined by + are all predicted targets of the reagent.

target	DRSC id	Wolbachia per cell robust z, rep 1	Wolbachia per cell robust z, rep 2	Wolbachia per cell robust z, rep 3	activity call
unc-45	DRSC15449	-1.89	0.0199	0.163	inactive
egh	DRSC18771	-0.536	0.927	-0.421	inactive
egh	DRSC29898	0.85	0.758	0.954	inactive
CG31730	DRSC01308	-1.99	-1.87	-1.42	inactive
CG8492	DRSC10984	-1.34	0.367	0.724	inactive
CG8492	DRSC21804	-0.12	-0.118	-1.35	inactive
Ser6	DRSC20574	-2.98	-1.08	-1.78	inactive
Ser6	DRSC27628	0.574	0.764	-0.668	inactive
Tudor-SN	DRSC08581	0.582	0.265	1.02	inactive
Rbf2	DRSC16816	-0.75	1.44	-0.194	inactive
CG2861	DRSC18229	-3.21	0.566	1.39	inactive
Aven	DRSC19693	0.42	0.12	-0.858	inactive
Klf15	DRSC17742	-0.021	-1.13	-2.28	inactive
Rpn12R	DRSC09842	-0.101	0.398	-0.597	inactive
Cyp9f2	DRSC16635	0.626	0.887	0.86	inactive
CG4053	DRSC15538	-0.21	0.827	1.14	inactive
CG4053	DRSC29364	0.741	1.26	0.444	inactive
sff	DRSC10590	-1.18	0.332	-0.472	inactive
dan	DRSC14406	-0.898	-0.215	1.56	inactive
dan	DRSC29653	0.818	1.42	0.655	inactive
Blos2	DRSC10147	1.34	0.664	-0.224	inactive
Blos2	DRSC25642	0.29	-0.721	0.328	inactive
disp	DRSC12376	-0.13	-1.52	0.164	inactive
bon	DRSC16914	0.708	0.0235	0.946	inactive
CG5265	DRSC15756	-0.207	-1.38	-0.993	inactive
mtg	DRSC16256	1.15	0.791	0.274	inactive
mtg	DRSC24674	-1.07	0.854	2.26	inactive
Sc2	DRSC08162	0.482	-0.0783	-1.3	inactive
Sc2	DRSC26153	0.0492	-0.833	-0.369	inactive
Surf1	DRSC11295	0.296	0.161	0.382	inactive
Surf1	DRSC11394	-0.432	-1.83	0.64	inactive
CG14722	DRSC14944	0.434	-0.563	-2.54	inactive
CG14722	DRSC24593	-0.689	0.486	0.511	inactive
CG14722	DRSC39066	0.569	0.603	1.19	inactive
wfs1	DRSC15676	0.309	0.0766	-5.94	inactive
CG9717	DRSC16543	0.431	0.564	-0.453	inactive
tilB	DRSC20634	-0.696	-1.65	-0.126	inactive
CG5646	DRSC15853	1.23	0.408	0.233	inactive
CG5646	DRSC29759	-3.34	-0.776	-4.4	active
CG5321	DRSC19940	0.815	0.0477	-1.45	inactive
CG5321	DRSC22802	-2.13	0.332	-0.501	inactive
CG5321	DRSC27348	0.188	-0.275	-6.45	inactive
SclA + SclB	DRSC29855	-2.09	-0.858	0.271	inactive
SclA + SclB	DRSC39126	-1.22	-0.285	-1.69	inactive
DIP-alpha	DRSC17891	-0.442	0.345	-0.545	inactive
DIP-alpha	DRSC23275	0.378	-1.07	-0.424	inactive
CG5989	DRSC10565	-1.06	-3.61	-0.579	inactive
Dad	DRSC16642	-0.526	-0.285	-0.723	inactive
Dad	DRSC28345	-0.0763	-0.262	-0.335	inactive
IFT52	DRSC03271	1.3	-0.195	0.217	inactive
IFT52	DRSC28697	-1.12	-0.585	-0.398	inactive
CHKov1	DRSC01566	1.02	0.413	0.346	inactive
CHKov1	DRSC01696	-0.775	-1.26	-2.74	inactive
CHKov1	DRSC14258	0.563	0.773	-0.315	inactive
CHKov1	DRSC20937	-1.63	-2.68	-3.46	inactive
CHKov1	DRSC30063	0.139	0.225	0.874	inactive
HDAC3	DRSC12352	-0.193	0.294	-3.89	inactive
mas	DRSC08720	0.000704	0.493	-0.336	inactive
mas	DRSC28905	-0.353	-0.0946	0.768	inactive
Septin2	DRSC16855	-0.0161	0.521	-0.953	inactive
ssp5	DRSC14955	0.299	-0.323	0.433	inactive
Zw10	DRSC18793	-0.416	0.227	-0.245	inactive
Zw10	DRSC25620	-0.875	0.0541	-1.06	inactive
tty	DRSC20588	0.46	0.872	-0.825	inactive
tty	DRSC26868	-0.972	-0.55	0.404	inactive
CG14421	DRSC17918	0.346	-2.11	-1	inactive
CG14421	DRSC25245	0.533	-1.83	-0.265	inactive
CG12237	DRSC19449	-3.12	-5.71	-2.85	active
CG12237	DRSC22256	-1.01	-0.795	1.29	inactive
CG12237	DRSC24647	-1.25	-0.316	-1.29	inactive
CG11816	DRSC19428	0.394	0.24	-1.39	inactive
CG11816	DRSC23612	-0.199	-3.73	-0.395	inactive
EDTP	DRSC07409	-0.000411	-0.033	-0.51	inactive
CG14220	DRSC19577	1.28	0.974	0.754	inactive
CG14220	DRSC26345	0.0189	-1.67	0.267	inactive
CG5555	DRSC15834	-0.247	1.16	3.1	inactive
GlcAT-S	DRSC02731	0.598	1.69	0.511	inactive
GlcAT-S	DRSC27771	0.0837	-1.87	-0.157	inactive
CG4968	DRSC02794	0.315	0.144	-3.26	inactive
CG4968	DRSC29740	0.749	0.965	0.48	inactive
bbg	DRSC11077	0.645	-0.161	-0.4	inactive
bbg	DRSC11079	0.123	1.1	-0.334	inactive
bbg	DRSC25910	-1.54	-3	-1.24	active
bbg	DRSC27292	-1.67	-6.24	0.505	active
GAPsec	DRSC10564	-0.744	-6.9	0.291	inactive
GAPsec	DRSC26128	0.0343	-1.5	-0.163	inactive
fru	DRSC16953	0.344	0.623	-2.84	inactive
fru	DRSC24960	0.366	-1.23	-0.0968	inactive

Hits (from the list above):
target	DRSC id	Wolbachia per cell robust z, rep 1	Wolbachia per cell robust z, rep 2	Wolbachia per cell robust z, rep 3	activity call
CG5646	DRSC29759	-3.34	-0.776	-4.4	active
CG12237	DRSC19449	-3.12	-5.71	-2.85	active
bbg	DRSC25910	-1.54	-3	-1.24	active
bbg	DRSC27292	-1.67	-6.24	0.505	active
